For assay [1], the target named is T1, LdtMt2 (Mycobacterium tuberculosis, UniProt I6Y9J2). The following applies: pH 8.
The target of assay [2] is T1, LdtMt2. The following applies: cited from earlier work.

Chains of the proteins cited; added tags and fusions are not shown. Residues count along the entry.
UniProt I6Y9J2, 56-408 limits assumed: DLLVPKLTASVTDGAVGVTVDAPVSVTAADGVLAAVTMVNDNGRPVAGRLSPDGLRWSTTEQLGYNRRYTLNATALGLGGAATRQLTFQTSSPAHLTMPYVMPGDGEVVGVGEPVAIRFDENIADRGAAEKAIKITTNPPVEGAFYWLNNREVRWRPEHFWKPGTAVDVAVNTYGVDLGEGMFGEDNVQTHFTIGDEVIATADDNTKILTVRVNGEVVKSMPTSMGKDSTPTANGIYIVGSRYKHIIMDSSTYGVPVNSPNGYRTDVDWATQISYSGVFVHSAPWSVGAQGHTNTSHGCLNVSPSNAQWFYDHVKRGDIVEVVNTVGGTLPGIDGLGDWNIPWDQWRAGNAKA

Structures are written as SMILES.

Consider `O=c1c2cc(Cl)c(Cl)cc2sn1CCO`, for which the “Transpeptidase activity assay pIC50 (mean ± SD)” value in assay [1] is on record as 6.5 ± 0.2. Besides, the “Fluorogenic probe assay pIC50 (mean ± SD)” value in assay [2] is on record as 8.0 ± 0.04.
With `N#Cn1c(-c2cnc(-c3cccs3)nc2)nc2ccccc21`, in assay [1], the “Transpeptidase activity assay pIC50 (mean ± SD)” value amounted to 6.6 ± 0.3. Moreover, the “Fluorogenic probe assay pIC50 (mean ± SD)” value in assay [2] is on record as 7.3 ± 0.06.
Consider `O=C1C=CC(=O)N1c1ccccc1`, for which the “Transpeptidase activity assay pIC50 (mean ± SD)” value in assay [1] stood at 6.5 ± 0.2. Further, in assay [2], the “Fluorogenic probe assay pIC50 (mean ± SD)” value was 7.2 ± 0.03.
On to `NC(=O)C=CC(=O)Nc1ccc(Cl)cc1`, for which, in assay [1], the “Transpeptidase activity assay pIC50 (mean ± SD)” value was 6.6 ± 0.1. Also, the “Fluorogenic probe assay pIC50 (mean ± SD)” value in assay [2] is 6.4 ± 0.08.

The values above are taken from article PMC11410929, “Biochemical and crystallographic studies of L,D-transpeptidase 2 from Mycobacterium tuberculosis with its natural monomer substrate” (Communications Biology, 2024).
